Measured values: patent publication US9340616B2, “Methods and compositions for heptameric targeting ligands” (The University of North Carolina at Chapel Hill, priority 2011, dated 2016)

Legend:
Assay type in all cases: cell-based
[1] = test system: EGFR-negative Jurkat cells; test: Cell surface binding of FITC-labeled ligands, confocal microscopy, Jurkat; conditions: ligand concentration as high as 100 nM
Protocol: About 2×10^4 cells were seeded on coverslides and allowed to grow in an appropriate medium for 16 hours. The resulting coverslides were washed with PBS twice, followed by incubation with different concentrations of FITC-labeled monomeric or heptameric targeting ligand for 30 min at room temperature. The coverslides were washed with PBS three times and visualized with a Zeiss LSM 510 confocal microscope.
Approximately 2×10^4 cells were seeded on coverslips and allowed to grow in the appropriate media for 16 h. The resulting coverslips were washed twice with 1×PBS buffer followed by incubation in different concentrations of FITC labeled monomeric or heptameric targeting ligand for 30 min at room temperature. The coverslips were washed three times with 1×PBS. The resulting samples were visualized by using a Zeiss LSM 510 confocal microscope.

A431 cells = test: Internalization and co-localization with EEA1, A431; conditions: FITC-labeled, 10 nM or 100 nM, 2 h, 37° C.; listed as heptameric Z^EGFR
Protocol: A431 and SKOV3 cells were seeded onto coverslides and grown for 16 hours at 37° C., and incubated with 10 nM or 100 nM of FITC-labeled heptameric Z^EGFR and Z^HER2 for 2 hours at 37° C. After removing unbound heptamers by washing, the cells were fixed with 2% paraformaldehyde in PBS for 15 min at room temperature. After fixation, cells were washed with PBS three times. For immunostaining, blocking solution (PBS with 5% BSA and 0.3% Triton X-100) was added for 1 hour at 4° C. Anti-EEA1 rabbit monoclonal antibody (Cell signaling Technology, Danvers, Mass.) was incubated (1:200) with the cells overnight at 4° C. The resulting cells were rinsed with PBS three times. After incubation with secondary antibody Alexa Fluor 555 conjugated anti Rabbit IgG (Cell signaling technology, Danvers, Mass.) for 1 hour at 4° C., the corresponding cells were rinsed with PBS three times followed by adding antifade reagent to examine the cells with confocal laser microscopy.
A431 and SK-OV3 cells were seeded onto the coverslips and grown for 16 h at 37° C. FITC-labeled 10 nM or 100 nM of heptameric Z^EGFR and Z^HER2 were incubated for 2 h at 37° C. with A431 and SK-OV3 cells grown on coverslips, respectively. After washing away unbound targeting ligands, the cells were fixed with 2% paraformaldehyde in PBS for 15 min at room temperature. Cells were then washed three times with 1×PBS. […]

[2] = test system: A431 cells (EGFR positive cells); test: Cell surface binding of FITC-labeled ligands, confocal microscopy, A431; conditions: FITC-labeled ligand, 30 min, room temperature

ZEGFR-Heptamer: Self-assembled heptamer of EGFR-binding Z domain fused through a hinge linker to the AF-Sm1 heptamerization domain, His-tagged
fluorescence signal (cell binding) [1]: No detectable fluorescence signal | internalization and co-localization with EEA1 (A431 cells): efficiently internalized and mostly co-localized with EEA1

ZEGFR-Monomer: EGFR-binding Z domain with hinge linker and C-terminal His-tag, constructed without the heptamerization domain
fluorescence signal (cell binding) [1]: No detectable fluorescence signal | fluorescence signal (cell binding) [2]: signal was evident
